Results as given in PubChem BioAssay AID2314 (National Center for Advancing Translational Sciences (NCATS), 2010).
This is a selection; strong and weak results do not stand in their true shares. Calls of active or inactive are those of the source. Rule as the data show it: active = max response mostly above about 13% (no sharp cut-off); inactive = mostly below about 14%.

Assay: Cycloheximide Counterscreen for Small Molecule Inhibitors of Shiga Toxin; also: read at 38.3 µM for the half of the compounds with a filed dose; 0% is about no effect
Conditions: cell reporter, cycloheximide protein synthesis inhibition counterscreen; stronger effect = higher value
With COc1ccccc1OP(C)(=O)Nc1ccc(C)c(C)c1 (stereo not drawn) the max response was inactive: -2.06%.
For COc1ccc(OP(C)(=O)Nc2ccccc2Br)cc1 (stereo not drawn), the max response was inactive: -2.35%.
With Cc1cc(C)cc(OP(C)(=O)Nc2cccc(C(F)(F)F)c2)c1 (stereo not drawn) the max response was inactive: -7.29%.
With CCN(N=Nc1nonc1N)c1nonc1N the max response was inactive: -5.98%.
With CP(=O)(Nc1ccc(Cl)cc1Cl)Oc1ccccc1 (stereo not drawn) the max response was inactive: 5.24%.
For CP(=O)(OCCOc1ccccc1)OCCOc1ccccc1, the max response was inactive: 0.38%.
With O=[N+]([O-])c1cc([N+](=O)[O-])c(CCN2CCOCC2)c([N+](=O)[O-])c1 the max response was inactive: -7.87%.
With COc1ccc(OP(C)(=O)Nc2ccccn2)cc1 (stereo not drawn) the max response was inactive: -3.28%.
In the case of CN(C)CCOC(=O)C(O)(c1ccccc1)C1CCCC1 (stereo not drawn), the max response is reported as inactive: 0.652%.
With COc1ccccc1OP(C)(=O)Nc1ccc(Br)cc1 (stereo not drawn) the max response was inactive: 8.27%.
With COc1ccccc1OP(C)(=O)Nc1ccc(C)cc1C (stereo not drawn) the max response was inactive: -2.26%.
For CP(=O)(Nc1ccccn1)Oc1ccccc1 (stereo not drawn), the max response was inactive: -1.11%.
With CCc1ccc(OP(C)(=O)O)cc1 the max response was inactive: -1.64%.
For Nc1cc(N)c2nonc2c1[N+](=O)[O-], the max response was inactive: -1.3%.
For Cc1c(NP(C)(=O)Oc2ccc(C(C)C)cc2)c(=O)n(-c2ccccc2)n1C (stereo not drawn), the max response was inactive: -1.57%.
In the case of O=[N+]([O-])c1cc([N+](=O)[O-])c(Nc2ccccn2)c([N+](=O)[O-])c1, the max response is reported as inactive: 4.83%.
In the case of O=C(OCCCN1CCCC1)C(O)(c1ccccc1)C1CCCCC1 (stereo not drawn), the max response is reported as inactive: -2.16%.
For COc1ccccc1OP(C)(=O)Nc1c(C)n(C)n(-c2ccccc2)c1=O (stereo not drawn), the max response was inactive: -1.11%.
For CCc1ccc(OP(C)(=O)Nc2cccnc2)cc1 (stereo not drawn), the max response was inactive: -5.07%.
For O=[N+]([O-])c1cc([N+](=O)[O-])c(CCNc2ccccc2)c([N+](=O)[O-])c1, the max response was inactive: 6.64%.
With CCc1nc2c(n1)c1c(non1O)c1c2no[n+]1[O-] the max response was inactive: -1.43%.
For CP(=O)(Oc1ccccc1)N1CCOC1=O (stereo not drawn), the max response was inactive: -0.177%.
With COc1ccc(OP(C)(=O)Nc2ccc(Br)cc2)cc1 (stereo not drawn) the max response was inactive: -3.45%.
For CCN(CC)CC(O)COC(=O)C(O)(c1ccccc1)C1CCCCC1 (stereo not drawn), the max response was inactive: 1.46%.
For CC(C)=N/N=C(\N)N[N+](=O)[O-], the max response was inactive: 3.28%.
For CN(C)C(=O)c1c([N+](=O)[O-])cc([N+](=O)[O-])cc1[N+](=O)[O-], the max response was inactive: 6.81%.
For C[N+]1=C2C=CC=CC=C2SC12C([N+](=O)[O-])=CC([N+](=O)[O-])=C[C-]2[N+](=O)[O-] (stereo not drawn), the max response was active: 67.5%.
With COc1ccccc1OP(C)(=O)Nc1ccccc1Br (stereo not drawn) the max response was inactive: -5.54%.
With CC(C)(C)c1ccc(OP(C)(=O)O)cc1 the max response was inactive: 0.382%.
For CP(=O)(Nc1ccc(Cl)cc1)Oc1ccc(F)cc1 (stereo not drawn), the max response was inactive: -2.82%.
With CCOC(=O)c1ccc(NP(C)(=O)Oc2ccc(Cl)cc2)cc1 (stereo not drawn) the max response was inactive: 1.45%.
With CP(=O)(OC12CC3CC(CC(C3)C1)C2)OC12CC3CC(CC(C3)C1)C2 the max response was inactive: -2.65%.
In the case of O=[N+]([O-])c1ncn(CCn2ncnc2[N+](=O)[O-])n1, the max response is reported as inactive: -1.89%.
In the case of CN(C)CCOC(=O)C(O)(c1ccccc1)C1CCCCC1 (stereo not drawn), the max response is reported as inactive: 1.27%.
With COc1ccc(NP(C)(=O)Oc2ccccc2OC)cc1 (stereo not drawn) the max response was inactive: -3.91%.
With COc1ccc(OP(C)(=O)Nc2cccc(Br)c2)cc1 (stereo not drawn) the max response was inactive: -5.46%.
With C(Cc1nn[nH]n1)Cc1nn[nH]n1 the max response was inactive: 2.44%.
With O=[N+]([O-])c1ccc(OP2(=O)COCCO2)cc1 (stereo not drawn) the max response was inactive: -3.29%.
With O=[N+]([O-])c1ncn(CCn2cnc([N+](=O)[O-])n2)n1 the max response was inactive: 1.27%.
With Cc1cc(-c2cccc3ccccc23)c(C)cn1.O=[N+]([O-])c1cc([N+](=O)[O-])c(O)c([N+](=O)[O-])c1 the max response was inactive: -1.05%.
With CCOP(C)(=S)SCC(=O)NC(C)(CC)C(=O)O (stereo not drawn) the max response was inactive: 0.253%.
For c1nnnn1CCn1cnnn1, the max response was inactive: -4.97%.
With CP(=O)(Nc1ccc(SC(F)(F)F)cc1)Oc1ccc(F)cc1 (stereo not drawn) the max response was inactive: -2.38%.
With Cc1ccccc1NP(C)(=O)Nc1ccccc1C the max response was inactive: -0.391%.
For CP(=O)(Nc1ccc2c(c1)OCCO2)Oc1ccccc1 (stereo not drawn), the max response was inactive: 20%.
For CP(=O)(Nc1ccccc1F)Oc1ccccc1 (stereo not drawn), the max response was inactive: -2.47%.
In the case of CC(C)c1ccc(OP(C)(=O)Nc2ccc(SC(F)(F)F)cc2)cc1 (stereo not drawn), the max response is reported as inactive: -2.02%.
For O=C(OCCN1CCN(CCOCc2ccccc2)CC1)C(O)(c1ccccc1)c1ccccc1, the max response was inactive: 0.636%.
In the case of CCOC(=O)c1ccc(NP(C)(=O)Oc2ccc(F)cc2)cc1 (stereo not drawn), the max response is reported as inactive: -2.75%.
With COc1ccc(OP(C)(=O)Nc2ccc(SC(F)(F)F)cc2)cc1 (stereo not drawn) the max response was inactive: -0.794%.
For CCNC(=S)/N=C(\N)N[N+](=O)[O-], the max response was inactive: 1.36%.
With CP(=O)(Nc1ccccc1)Oc1ccc(F)cc1 (stereo not drawn) the max response was inactive: -1.84%.
For O=c1c2cc([N+](=O)[O-])ccc2[nH]c2c([N+](=O)[O-])cc([N+](=O)[O-])cc12, the max response was inactive: -1.09%.
For CCCCCOc1ccc(NP(C)(=O)Oc2ccc(Cl)cc2Cl)cc1 (stereo not drawn), the max response was inactive: 4.23%.
For CCN(CC)CCCOC(=O)C(O)(c1ccccc1)C1CCCCC1 (stereo not drawn), the max response was inactive: -3.84%.
In the case of CS(=O)(=O)c1cc([N+](=O)[O-])c2no[n+]([O-])c2c1, the max response is reported as inactive: 4.61%.
In the case of CC1=NCCc2c1[nH]c1ccccc21.O=[N+]([O-])c1cc([N+](=O)[O-])c(O)c([N+](=O)[O-])c1, the max response is reported as inactive: 10.3%.
For O=[N+]([O-])OCC(CO[N+](=O)[O-])(CO[N+](=O)[O-])CO[N+](=O)[O-], the max response was inactive: 7.34%.
With CCOC(=O)c1ccc(NP(C)(=O)Oc2cc(C)cc(C)c2)cc1 (stereo not drawn) the max response was inactive: -2.76%.
With Cc1cc(C)cc(OP(C)(=O)Nc2ccc(C)cc2C)c1 (stereo not drawn) the max response was inactive: 5.75%.
With COc1ccccc1OP(C)(=O)Nc1cccc(Br)c1 (stereo not drawn) the max response was inactive: -0.472%.
In the case of Cc1ccc(C)c(NP(C)(=O)Oc2ccccc2)c1 (stereo not drawn), the max response is reported as inactive: -1.21%.
In the case of Cc1ccc(NCCc2c([N+](=O)[O-])cc([N+](=O)[O-])cc2[N+](=O)[O-])cc1, the max response is reported as inactive: 14%.
